Anti-infective test results gathered from many reports (values: NIAID ChemDB through PubChem).

Common to all: host cell toxicity; cells: HepG2.117; method: luminescence; read-out: CC50

CCn: concentration that lowers growth or viability of the cells by n%.

| compound | result |
|---|---|
| C[C@@H]1Cc2nn3c(c2CN1C(=O)c1ccc(Cl)c(C#N)c1)C(=O)N([C@@H](C)c1ccc(C(F)(F)F)cc1)CC3 | >50 µM |
| C[C@@H]1Cc2nn3c(c2CN1C(=O)c1ccc(Cl)c(Cl)c1)C(=O)N([C@@H](C)c1ccc(NS(C)(=O)=O)cc1)CC3 | >50 µM |
| CNC(=O)c1ccc(N2C(=NCc3ccccc3-c3ccccn3)NC3=C(C[C@@H](C)N(C(=O)c4ccc(Br)c(C(F)(F)F)c4)C3)C2O)c(Cl)c1 | >50 µM |
| C[C@@H]1Cc2nn3c(c2CN1C(=O)c1ccc(Cl)c(C#N)c1)C(=O)N([C@H](C)c1cccc(C(F)(F)F)c1)CC3 | >50 µM |
| CC(=O)Nc1ccc([C@H](C)N2CCn3nc4c(c3C2=O)CN(C(=O)c2ccc(Br)c(C#N)c2)[C@H](C)C4)cc1 | >50 µM |
| C=C[C@H](C)Nc1nc2c(c(=O)n1-c1ccc(C(=O)N(C)C(=O)OCOC(=O)[C@@H](N)C(C)C)cc1)C[C@@H](C)N(C(=O)c1ccc(Br)c(C(F)(F)F)c1)C2 | >50 µM |
| CNC(=O)c1ccc(-n2c([C@@H]3CCCN3C(C)C)nc3c(c2=O)C[C@@H](C)N(C(=O)c2ccc(Br)c(C(F)(F)F)c2)C3)cc1 | >50 µM |
| C[C@@H]1Cc2nn3c(c2CN1C(=O)c1ccc(Cl)c(C#N)c1)C(=O)N([C@@H](C)c1ccc(S(F)(F)(F)(F)F)cc1)CC3 | 40.3 µM |
| Cc1cc(C)n(-c2nc3c(c(=O)n2-c2ccc(NC[C@H](C)O)nc2)C[C@@H](C)N(C(=O)c2ccc(Br)c(C(F)(F)F)c2)C3)n1 | >0.5 µM |
| O=C(c1ccc(Cl)c(Cl)c1)N1CCc2nn3c(c2C1)-c1nccn1CCC3 | >50 µM |
| C=C[C@H](C)Nc1nc2c(c(=O)n1-c1ccc(C(=O)N(C)C(=O)OCOC(=O)C[C@H](O)C(=O)O)cc1)C[C@@H](C)N(C(=O)c1ccc(Br)c(C(F)(F)F)c1)C2 | >50 µM |
| Cc1cc(C)n(-c2nc3c(c(=O)n2-c2ccc(N4CCNCC4)nc2)C[C@@H](C)N(C(=O)c2ccc(Br)c(C(F)(F)F)c2)C3)n1 | >0.5 µM |
| C[C@@H]1Cc2nn3c(c2CN1C(=O)c1ccc(Cl)c(C#N)c1Cl)C(=O)N([C@@H](C)c1ccc(OC(F)F)cc1)CC3 | >50 µM |
| C=C[C@H](C)Nc1nc2c(c(=O)n1-c1ccc(C(=O)N(C)C(=O)OCOC(=O)[C@H](N)C(C)C)cc1)C[C@@H](C)N(C(=O)c1ccc(Br)c(C(F)(F)F)c1)C2 | 48.8 µM |
| CC(=O)Nc1cccc([C@H](C)N2CCn3nc4c(c3C2=O)CN(C(=O)c2ccc(Cl)c(Cl)c2)[C@H](C)C4)c1 | 36.2 µM |
| Cc1cc(C)n(-c2nc3c(c(=O)n2-c2cc(F)c4c(c2)ncn4C)C[C@@H](C)N(C(=O)c2ccc(Br)c(C(F)(F)F)c2)C3)n1 | >0.5 µM |
| C[C@@H]1Cc2nn3c(c2CN1C(=O)c1ccc(Cl)c(C#N)c1)C(=O)N([C@@H](C)c1ccnc(C(F)(F)F)c1)CC3 | >50 µM |
| C=C[C@H](C)Nc1nc2c(c(=O)n1-c1ccc(C(=O)N(C)C(=O)O[C@@H](OC(=O)[C@@H](N)C(C)C)C(C)C)cc1)C[C@@H](C)N(C(=O)c1ccc(Br)c(C(F)(F)F)c1)C2 | >50 µM |
| C[C@@H]1Cc2nn3c(c2CN1C(=O)c1ccc(Cl)c(C#N)c1Cl)C(=O)N([C@H](C)c1ccc(OC(F)F)cc1)CC3 | >50 µM |
| CNC(=O)c1ccc(-n2c(-n3nc(C)cc3C)nc3c(c2=O)C[C@@H](C)N(C(=O)c2ccc(Br)c(C(F)(F)F)c2)C3)cn1 | >0.5 µM |
| C[C@@H]1Cc2nn3c(c2CN1C(=O)c1ccc(Cl)c(C#N)c1)C(=O)N([C@H](C)c1cccc(OC(F)(F)F)c1)CC3 | >50 µM |
| Cc1cc(C)n(-c2nc3c(c(=O)n2-c2ccc(N4CCOCC4)nc2)C[C@@H](C)N(C(=O)c2ccc(Br)c(C(F)(F)F)c2)C3)n1 | >0.5 µM |
| C=C[C@H](C)Nc1nc2c(c(=O)n1-c1ccc(C(=O)N(C)C(=O)O[C@@H](C)OC(=O)[C@@H](N)C(C)C)cc1)C[C@@H](C)N(C(=O)c1ccc(Br)c(C(F)(F)F)c1)C2 | >50 µM |
| C[C@@H]1Cc2nn3c(c2CN1C(=O)c1ccc(Cl)c(C#N)c1)C(=O)N(Cc1ccc2ncoc2c1)CC3 | >50 µM |

3 of the rows above, restated:

compound,result
C=C[C@H](C)Nc1nc2c(c(=O)n1-c1ccc(C(=O)N(C)C(=O)OCOC(=O)[C@@H](N)C(C)C)cc1)C[C@@H](C)N(C(=O)c1ccc(Br)c(C(F)(F)F)c1)C2,>50 µM
C=C[C@H](C)Nc1nc2c(c(=O)n1-c1ccc(C(=O)N(C)C(=O)O[C@@H](C)OC(=O)[C@@H](N)C(C)C)cc1)C[C@@H](C)N(C(=O)c1ccc(Br)c(C(F)(F)F)c1)C2,>50 µM
CNC(=O)c1ccc(N2C(=NCc3ccccc3-c3ccccn3)NC3=C(C[C@@H](C)N(C(=O)c4ccc(Br)c(C(F)(F)F)c4)C3)C2O)c(Cl)c1,>50 µM

Conditions beyond the fields shown may differ between rows.